Results of unrelated studies side by side (data: NIAID ChemDB).

Shared fields: growth or infection tests; species: HIV-1; read by: p24 / ELISA; read-out: EC50

An empty or dashed field is not shown.

compound,mutations,strain or isolate,cells,result
CS(=O)(=O)O[C@H]1C[C@H](n2ccc(=O)[nH]c2=O)O[C@@H]1COP(=O)(OCC(Cl)(Cl)Cl)OCC(Cl)(Cl)Cl,-,RF,C8166,>100 µM
Cc1cn([C@H]2C[C@H](N=[N+]=[N-])[C@@H](CO)O2)c(=O)[nH]c1=O,-,NL4-3,CEM-GFP,0.000158 µM
O=c1[nH]cnc2c1ncn2[C@H]1CC[C@@H](CO)O1,RT-K65R,HXB2D (RT-K65R),PBMC,36 µM
C=CCN(C(=O)OCc1ccc2nonc2c1)C1CCN([C@H]2CN(C(=O)C3CCCC3)C[C@]2(O)c2ccccc2)CC1,-,-,PBMC,<0.005 µM
CCCCCCCCCCCCCCCC(=O)Nc1ncnc2c1ncn2[C@@H]1O[C@H](CO)[C@@H](F)[C@H]1O,-,IIIB,H9,1 µg/mL
COCc1cc(C)nc2sc(C(N)=O)c(N)c12,-,-,U1,<0.52 µM
CCCCCC/C=C\C/C=C\CCCCCCC(=O)O[C@H](COC(=O)CCCCCCCCCCCCCCC)COP(=O)(O)OC1[C@@H](O)[C@H](O)C(O)[C@H](O)[C@@H]1O,-,-,MOLT-4,38 µM
C[n+]1ccc2cc(O)c(O)cc2c1Cc1ccc(O)c(O)c1,-,IIIB,H9,>2.5 µg/mL
O=S(Cc1[nH]c2ccccc2c1Sc1ccccc1)c1ccccc1,-,IIIB,MT-4,<0.4 µM
C/C=C/C(=O)O[C@@H]1[C@@H](O)[C@]2(OC(C)=O)[C@H]([C@@H]3C=C(COC(C)=O)C[C@]4(O)C(=O)C(C)=C[C@H]4[C@@]13O)C2(C)C,-,IIIB,C8166,2.18 µM
O=c1[nH]cnc2c1ncn2C1CC[C@@H](CO)O1,-,LAI,Primary T lymphocytes,11.5 µM
NC(=O)c1cc2c(-c3ccc4c(c3)CCO4)cncc2s1,-,LAI,PBMC,0.291 µM
CCN(c1nc(F)ccc1NC(C)(C)C)C1CCN(C(=O)c2cc3cc(NC(=O)N4CCN(C)CC4)ccc3[nH]2)CC1,K112M K113E V128I M200I H219P I401T R409K D437N L441P,IIIB,MT-2,0.0261 µM
O=C1Nc2ccc(Cl)cc2[C@@](C#CC2CC2)(C(F)(F)F)O1,-,NL4-3,CEM-GFP,0.000007 µM
COc1ccc(-c2cncc3sc(C(N)=O)cc23)cc1,-,-,U1,0.011 µM
COC[C@@H](c1ccc(C(F)(F)F)cc1)N1CCN(C2(C)CCN(C(=O)c3c(C)ncnc3C)CC2)C[C@@H]1C,-,CC1/85 maraviroc-resistant isolate,PBMC,>20 µM
CC(=O)O[C@@H]1[C@@H](C)[C@@]2(O)[C@@H](C=C(CO)C[C@]3(O)C(=O)C(C)=C[C@@H]23)[C@@H]2C(C)(C)[C@]12OC(C)=O,-,IIIB,C8166,0.3236 µM
O=C(c1ccccc1)c1cnc(Cc2ccc(Nc3c(Cl)cccc3Cl)cc2)[nH]1,-,NL4-3,MT-4,0.13 µg/mL
O=c1c(O)c(-c2ccc(O)c(O)c2)oc2cc(O)cc(O)c12,-,IIIB,MT-4,53 µg/mL
COc1cc(-c2oc3cc(O)cc(O)c3c(=O)c2O)ccc1O,-,IIIB,H9,1.78 µg/mL
NC(=O)c1[nH]c2ccc(Cl)cc2c1S(=O)c1ccccc1,-,IIIB,MT-4,<0.2 µM
NC(=O)c1cc2c(-c3cnc4ccccc4c3)cncc2s1,-,-,U1,0.066 µM
CC(C)=CCC/C(C)=C/CN1CCc2cc(O)c(O)cc2[C@H]1C,-,IIIB,H9,>2.5 µg/mL
C=CCN(C(=O)NCc1ccc(C(F)(F)F)cc1)C1CCN([C@H]2CN(C(=O)C3CCCC3)C[C@]2(O)c2ccccc2)CC1,-,-,PBMC,<0.005 µM
C=C(C)[C@]12C[C@@H](COC(C)=O)[C@@]34OC5(O[C@@H]1[C@@H]3[C@@H]1O[C@]1(COC(=O)c1ccccc1)[C@@H](O)[C@@]1(O)[C@H]4[C@H]([C@H](C)[C@@H]1O)[C@H](C)CC(OC(=O)c1ccccc1)C(OC(C)=O)C(OC(=O)c1ccccc1)CC[C@H]5O)O2,-,NL4-3,MT-4,0.0029 µM
CC1(C)CC[C@]2(C(=O)O)CC[C@]3(C)C(=CC[C@@H]4[C@@]5(C)CC[C@H](O[C@@H]6OC[C@@H](O)[C@H](OC7O[C@H](CO)[C@H](O)[C@H](O)[C@H]7O)[C@H]6O)C(C)(C)[C@@H]5CC[C@]43C)[C@@H]2C1,-,BaL,PBMC,1.84 µg/mL
Cc1cn([C@H]2C[C@H](N=[N+]=[N-])[C@@H](CO)O2)c(=O)[nH]c1=O,-,IIIB,MT-2,0.0057 µM
CC(C)=CCN1Cc2cc(Cl)cc3[nH]c(=S)n(c23)C[C@@H]1C,-,IIIB,MT-4,<0.4 µM
Cc1cn([C@H]2C[C@H](N=[N+]=[N-])[C@@H](CO)O2)c(=O)[nH]c1=O,-,NL4-3,MT-4,0.02 µM
CCc1c(CC2CCCCC2)nc(SCC(=O)c2ccccc2)[nH]c1=O,Y181C,NL4-3,C8166,0.241 µM
CN(C)c1ccnc2sc(C(N)=O)c(N)c12,-,-,U1,<0.28 µM
CCO[C@H]1C[C@H](n2cc(C)c(=O)[nH]c2=O)O[C@@H]1COP(=O)(OCC(Cl)(Cl)Cl)OCC(Cl)(Cl)Cl,-,RF,C8166,28 µM
NC[C@H]1O[C@@H](n2cnc3c(N)ncnc32)[C@H](O)[C@@H]1F,-,IIIB,H9,1 µg/mL
Cc1cn([C@H]2C[C@H](N=[N+]=[N-])[C@@H](COC(=O)C3=CN(C)C=CC3)O2)c(=O)[nH]c1=O,-,899A,MT-4,0.29 µM
CC1c2cc(O)c(O)cc2CCN1C,-,IIIB,H9,>2.5 µg/mL
C=C(C)[C@]12C[C@@H](COC(=O)c3ccccc3)[C@@]34OC5(O[C@@H]1[C@@H]3[C@@H]1O[C@]1(CO)[C@@H](O)[C@@]1(O)[C@H]4[C@H]([C@H](C)[C@@H]1OC(=O)c1ccccc1)[C@H](C)CCCCCC[C@H]5O)O2,-,NL4-3,MT-4,0.000061 µM
CCCC(=O)OCC1=C[C@H]2[C@@H]3C(C)(C)[C@]3(OC(=O)CCC)[C@H](OC(=O)/C=C/c3ccc(OC)c(OC(C)=O)c3)[C@@H](C)[C@]2(O)[C@@H]2C=C(C)C(=O)[C@@]2(O)C1,-,IIIB,C8166,293.2 µM
Cc1cn([C@H]2C[C@H](N=[N+]=[N-])[C@@H](CO)O2)c(=O)[nH]c1=O,-,IIIB,H9,0.045 µM
Cc1cn([C@H]2C[C@H](N=[N+]=[N-])[C@@H](CO)O2)c(=O)[nH]c1=O,-,Du422.1,TZM-bl,0.00696 µM
COc1cc(OC)nc(N2C(=O)CSC2c2c(F)cccc2Cl)n1,-,N119,PBMC,3.6 µg/mL
CC(C)=CCC/C(C)=C/C[N+]1(C/C=C(\C)CCC=C(C)C)CCc2cc(O)c(O)cc2[C@H]1Cc1ccc(O)c(O)c1,-,IIIB,H9,>2.5 µg/mL
C=CCN(C(=O)NCc1ccc(S(=O)ONC)cc1)C1CCN([C@H]2CN(C(=O)C3CCCC3)C[C@]2(O)c2ccccc2)CC1,-,-,PBMC,<0.005 µM
Cc1cn([C@H]2C[C@H](N=[N+]=[N-])[C@@H](CO)O2)c(=O)[nH]c1=O,-,IIIB,U-937,0.0037 µg/mL
CC(C)=CCC/C(C)=C/C[N@@+]12CCc3cc(O)c(O)cc3[C@H]1Cc1cc(O)c(O)cc1C2,-,IIIB,H9,>25 µg/mL
NC(=O)c1sc2cncc(N3CCC(C(N)=O)CC3)c2c1N,-,-,U1,0.391 µM
Cc1cn([C@H]2C[C@H](N=[N+]=[N-])[C@@H](CO)O2)c(=O)[nH]c1=O,-,RF,C8166,0.02 µM
CCCCCCCCCC(=O)O[C@@H]1[C@@H](C)[C@@]2(O)[C@@H](C=C(CO)C[C@]3(O)C(=O)C(C)=C[C@@H]23)[C@@H]2C(C)(C)[C@]12OC(=O)CCCCCCCCC,-,IIIB,C8166,3.18 µg/mL
C=CCN(C(=O)Nc1ccc(Cl)cc1)C1CCN([C@H]2CN(C(=O)C3CCCC3)C[C@]2(O)c2ccccc2)CC1,-,-,PBMC,>0.1 µM
CCCCCCCCCCCCCCCCCCCCCCC(=O)O[C@@H]1[C@@H](C)[C@@]2(O)[C@@H](C=C(COC(C)=O)C[C@]3(O)C(=O)C(C)=C[C@@H]23)[C@@H]2C(C)(C)[C@]12O,PI-resistant (V82F I84V),RF,C8166,0.396 µM
CCCCCCCCCCCCC(=O)O[C@@H]1[C@@H](C)[C@@]2(O)[C@@H](C=C(CO)C[C@]3(O)C(=O)C(C)=C[C@@H]23)[C@@H]2C(C)(C)[C@]12OC(=O)CCCCCCCCCCCC,-,IIIB,C8166,18.67 µM
COC(=O)c1[nH]c2ccccc2c1Sc1ccccc1,-,IIIB,MT-4,>3 µM
CC1NCCc2cc(O)c(O)cc21,-,IIIB,H9,>2.5 µg/mL
Cc1cn([C@H]2C[C@H](N=[N+]=[N-])[C@@H](CO)O2)c(=O)[nH]c1=O,-,IIIB,C8166,0.03445 µM
Cc1cn([C@H]2C=C[C@@H](CO)O2)c(=O)[nH]c1=O,L74V,-,Primary T lymphocytes,0.9 µM
C=CCN(C(=O)OCc1ccc(C(F)(F)F)cc1)C1CCN([C@H]2CN(C(=O)C3CCCC3)C[C@]2(O)c2ccccc2)CC1,-,-,PBMC,<0.099 µM
Cc1cn([C@H]2C[C@H](N=[N+]=[N-])[C@@H](CO)O2)c(=O)[nH]c1=O,-,IIIB,H9,0.01 µM
CCC(=O)c1ccc(F)c([C@H]2C[C@H]2NC(=O)Nc2ccc(C#N)cn2)c1O,-,-,PBMC,<0.001 µM
Nc1ccn([C@@H]2O[C@H](CO)C=C2F)c(=O)n1,-,IIIB,H9,0.5 µg/mL
O=S(Cc1[nH]c2ccccc2c1S(=O)c1ccccc1)c1ccccc1,-,IIIB,MT-4,>3 µM
CC(=O)O[C@@H]1[C@@H](C)[C@@]2(O)[C@@H](C=C(CO)C[C@]3(O)C(=O)C(C)=C[C@@H]23)[C@@H]2C(C)(C)[C@]12OC(=O)CCCCn1ccc(=O)n(CCCCOC(=O)[C@@]2(C)CC[C@]3(C)CC[C@]4(C)C(=CC(=O)[C@@H]5[C@@]6(C)CC[C@H](C)C(C)(C)[C@@H]6CC[C@]54C)[C@@H]3C2)c1=O,-,IIIB,C8166,75.87 µM
C=CCN(C(=O)NCc1ccc(F)c(F)c1)C1CCN([C@H]2CN(C(=O)C3CCCC3)C[C@]2(O)c2ccccc2)CC1,-,-,PBMC,<0.05 µM
CCOP(=O)(COc1ccc(C[C@H](NC(=O)O[C@H]2CO[C@H]3OCC[C@H]32)[C@H](O)CN(CC(C)C)S(=O)(=O)c2ccc(OC)cc2)cc1)OCC,I401T,IIIB,MT-2,0.008 µM
CNC(=O)c1[nH]c2ccccc2c1Sc1ccccc1,-,IIIB,MT-4,<0.8 µM
Oc1ccc(CC2NCCc3cc(O)c(O)cc32)cc1O,-,IIIB,H9,>2.5 µg/mL
Cc1cn([C@H]2C[C@H](N=[N+]=[N-])[C@@H](CO)O2)c(=O)[nH]c1=O,-,-,MOLT-4,>50 µM

ECn is the concentration giving n% inhibition of infection, replication or growth. Lines come from different laboratories, so protocols vary.